# Results from patent US20220089698A1, “ANTIBODIES THAT TARGET HIV GP120 AND METHODS OF USE” (published 2022).
# B1: 1.1.111-1 (antibody, human IgG1, kappa)
# heavy: QVQLLQSGAAVTKPGASVRVSCEASGYNIRDYFIHWWRQAPGQGLQWVGWINPKTGQPNNPRQFQGRVSLTRHASWDFDTFSFYMDLKALRSDDTAVYFCARQRSDYWDFDVWGSGTQVTVSSASTKGPSVFPLAPSSKSTSGGTAALGCLVKDYFPEPVTVSWNSGALTSGVHTFPAVLQSSGLYSLSSVVTVPSSSLGTQTYICNVNHKPSNTKVDKKVEPKSCDKTHTCPPCPAPELLAGPDVFLFPPKPKDTLMISRTPEVTCVVVDVSHEDPEVKFNWYVDGVEVHNAKTKPREEQYNSTYRVVSVLTVLHQDWLNGKEYKCKVSNKALPLPEEKTISKAKGQPREPQVYTLPPSREEMTKNQVSLTCLVKGFYPSDIAVEWESNGQPENNYKTTPPVLDSDGSFFLYSKLTVDKSRWQQGNVFSCSVLHEALHSHYTQKSLSLSPGK
# light: not shown
# B2: 2.1.4-1 (antibody, human IgG1, kappa)
# heavy: QVHLSQSGAAVTKPGASVRVSCEASGYKISDHFIHWWRQAPGQGLQWVGWINPKTGQPNNPRQFQGRVSLTRQASWDFDTYSFYMDLKAVRSDDTAIYFCARQRSDFWDFDVWGSGTQVTVSSASTKGPSVFPLAPSSKSTSGGTAALGCLVKDYFPEPVTVSWNSGALTSGVHTFPAVLQSSGLYSLSSVVTVPSSSLGTQTYICNVNHKPSNTKVDKKVEPKSCDKTHTCPPCPAPELLAGPDVFLFPPKPKDTLMISRTPEVTCVVVDVSHEDPEVKFNWYVDGVEVHNAKTKPREEQYNSTYRVVSVLTVLHQDWLNGKEYKCKVSNKALPLPEEKTISKAKGQPREPQVYTLPPSREEMTKNQVSLTCLVKGFYPSDIAVEWESNGQPENNYKTTPPVLDSDGSFFLYSKLTVDKSRWQQGNVFSCSVLHEALHSHYTQKSLSLSPGK
# light: not shown
# B3: 1.1.113-1 (antibody, human IgG1, kappa)
# heavy: QVQLLQSGAAVTKPGASVRVSCEASGYNIRDYFIHWWRQAPGQGLQWVGWINPKTGQPNNPRQFQGRVSLTRHASWDFDTFSFYMDLKALRSDDTAVYFCARQRSDYWDFDVWGSGTQVTVSSASTKGPSVFPLAPSSKSTSGGTAALGCLVKDYFPEPVTVSWNSGALTSGVHTFPAVLQSSGLYSLSSVVTVPSSSLGTQTYICNVNHKPSNTKVDKKVEPKSCDKTHTCPPCPAPELLAGPDVFLFPPKPKDTLMISRTPEVTCVVVDVSHEDPEVKFNWYVDGVEVHNAKTKPREEQYNSTYRVVSVLTVLHQDWLNGKEYKCKVSNKALPLPEEKTISKAKGQPREPQVYTLPPSREEMTKNQVSLTCLVKGFYPSDIAVEWESNGQPENNYKTTPPVLDSDGSFFLYSKLTVDKSRWQQGNVFSCSVLHEALHSHYTQKSLSLSPGK
# light: not shown
# B4: 2.1.3-1 (antibody, human IgG1, kappa)
# heavy: QVHLSQSGAAVTKPGASVRVSCEASGYKISDHFIHWWRQAPGQGLQWVGWINPKTGQPNNPRQFQGRVSLTRQASWDFDTYSFYMDLKAVRSDDTAIYFCARQRSDFWDFDVWGSGTQVTVSSASTKGPSVFPLAPSSKSTSGGTAALGCLVKDYFPEPVTVSWNSGALTSGVHTFPAVLQSSGLYSLSSVVTVPSSSLGTQTYICNVNHKPSNTKVDKKVEPKSCDKTHTCPPCPAPELLAGPDVFLFPPKPKDTLMISRTPEVTCVVVDVSHEDPEVKFNWYVDGVEVHNAKTKPREEQYNSTYRVVSVLTVLHQDWLNGKEYKCKVSNKALPLPEEKTISKAKGQPREPQVYTLPPSREEMTKNQVSLTCLVKGFYPSDIAVEWESNGQPENNYKTTPPVLDSDGSFFLYSKLTVDKSRWQQGNVFSCSVLHEALHSHYTQKSLSLSPGK
# light: not shown
# B5: Antibody A-1 (antibody, human IgG1, kappa)
# heavy: QVQLLQSGAAVTKPGASVRVSCEASGYNIRDYFIHWWRQAPGQGLQWVGWINPKTGQPNNPRQFQGRVSLTRHASWDFDTFSFYMDLKALRSDDTAVYFCARQRSDYWDFDVWGSGTQVTVSSASTKGPSVFPLAPSSKSTSGGTAALGCLVKDYFPEPVTVSWNSGALTSGVHTFPAVLQSSGLYSLSSVVTVPSSSLGTQTYICNVNHKPSNTKVDKKVEPKSCDKTHTCPPCPAPELLAGPDVFLFPPKPKDTLMISRTPEVTCVVVDVSHEDPEVKFNWYVDGVEVHNAKTKPREEQYNSTYRVVSVLTVLHQDWLNGKEYKCKVSNKALPLPEEKTISKAKGQPREPQVYTLPPSREEMTKNQVSLTCLVKGFYPSDIAVEWESNGQPENNYKTTPPVLDSDGSFFLYSKLTVDKSRWQQGNVFSCSVLHEALHSHYTQKSLSLSPGK
# light: not shown
# Legend:
# Test in all cases: cell-based or functional assay
# [1] = target: HIV-1 envelope glycoprotein (gp120) of virus 92US727 (HIV-1)
# [2] = target: HIV-1 envelope glycoprotein (gp120) of virus VS001 (HIV-1)
# [3] = target: HIV-1 envelope glycoprotein (gp120) of virus 7141 (HIV-1)
# [4] = target: HIV-1 envelope glycoprotein (gp120) of virus 92US712 (HIV-1)
# [5] = target: HIV-1 envelope glycoprotein (gp120) of virus 7051 (HIV-1)
# [6] = target: HIV-1 envelope glycoprotein (gp120) of virus THRO (HIV-1)
# [7] = target: HIV-1 envelope glycoprotein (gp120) of virus 92US727 (HIV-1); remark: listed apart in the source
# [8] = target: HIV-1 envelope glycoprotein (gp120) of virus 7015 (HIV-1)
# [9] = target: HIV-1 envelope glycoprotein (gp120) of virus 7552 (HIV-1)
# [10] = target: HIV-1 envelope glycoprotein (gp120) of virus CH106 (HIV-1)
# [11] = target: HIV-1 envelope glycoprotein (gp120) of virus 92US657 (HIV-1)
# [12] = target: HIV-1 envelope glycoprotein (gp120) of virus 8320 (HIV-1)
# [13] = target: HIV-1 envelope glycoprotein (gp120) of virus 8398 (HIV-1)
# [14] = target: HIV-1 envelope glycoprotein (gp120) of virus 8318 (HIV-1)
# [15] = target: HIV-1 envelope glycoprotein (gp120) of virus 7007 (HIV-1)
# [16] = target: HIV-1 envelope glycoprotein (gp120) of virus 92HT593 (HIV-1)
# [17] = target: HIV-1 envelope glycoprotein (gp120) of virus 8339 (HIV-1)
# [18] = target: HIV-1 envelope glycoprotein (gp120) of virus CH040 (HIV-1)
# [19] = target: HIV-1 envelope glycoprotein (gp120) of virus RHPA (HIV-1)
# [20] = target: HIV-1 envelope glycoprotein (gp120) of virus 1413 (HIV-1)
# [21] = target: HIV-1 envelope glycoprotein (gp120) of virus 7576 (HIV-1)
# [22] = target: HIV-1 envelope glycoprotein (gp120) of virus 7595 (HIV-1)
# [23] = target: HIV-1 envelope glycoprotein (gp120) of virus 7141 (HIV-1); remark: listed apart in the source
# [24] = target: HIV-1 envelope glycoprotein (gp120) of virus 92US712 (HIV-1); remark: listed apart in the source
Binder,Neutralization IC50 [1],Neutralization IC50 [5],Neutralization IC50 [6],Neutralization IC50 [7],Neutralization IC50 [8],Neutralization IC50 [9],Neutralization IC50 [10],Neutralization IC50 [11],Neutralization IC50 [12],Neutralization IC50 [13],Neutralization IC50 [14],Neutralization IC50 [15],Neutralization IC50 [16],Neutralization IC50 [17],Neutralization IC50 [18],Neutralization IC50 [19],Neutralization IC50 [20],Neutralization IC50 [21],Neutralization IC50 [22],Neutralization IC50 [23],also measured
B1,> 50 µg/mL,0.32 µg/mL,8.58 µg/mL,> 50 µg/mL,0.48 µg/mL,> 50 µg/mL,0.86 µg/mL,0.4 µg/mL,0.3 µg/mL,> 50 µg/mL,0.48 µg/mL,> 50 µg/mL,0.29 µg/mL,> 50 µg/mL,3.71 µg/mL,0.08 µg/mL,2.33 µg/mL,0.26 µg/mL,1.31 µg/mL,29.8 µg/mL,Neutralization IC50 [2]: 3.24 µg/mL; Neutralization IC50 [3]: > 50 µg/mL; Neutralization IC50 [4]: 0.13 µg/mL
B2,–,0.46 µg/mL,4.97 µg/mL,7.27 µg/mL,0.59 µg/mL,> 50 µg/mL,0.91 µg/mL,0.38 µg/mL,0.23 µg/mL,> 50 µg/mL,0.21 µg/mL,> 50 µg/mL,0.33 µg/mL,> 50 µg/mL,0.36 µg/mL,0.05 µg/mL,2.16 µg/mL,0.55 µg/mL,1.19 µg/mL,6.78 µg/mL,Neutralization IC50 [24]: 0.11 µg/mL
B3,–,0.41 µg/mL,9.39 µg/mL,> 50 µg/mL,0.44 µg/mL,> 50 µg/mL,0.59 µg/mL,0.4 µg/mL,0.28 µg/mL,> 50 µg/mL,0.14 µg/mL,> 50 µg/mL,0.24 µg/mL,> 50 µg/mL,0.15 µg/mL,0.05 µg/mL,3.67 µg/mL,0.28 µg/mL,1.78 µg/mL,27.9 µg/mL,–
B4,–,0.42 µg/mL,6.56 µg/mL,14.3 µg/mL,0.89 µg/mL,> 50 µg/mL,1.01 µg/mL,0.42 µg/mL,0.28 µg/mL,> 50 µg/mL,0.24 µg/mL,> 50 µg/mL,0.3 µg/mL,> 50 µg/mL,0.47 µg/mL,0.07 µg/mL,2.78 µg/mL,0.49 µg/mL,1.35 µg/mL,13.8 µg/mL,Neutralization IC50 [24]: 0.2 µg/mL
B5,3.8 µg/mL and 4.8 µg/mL,0.52 µg/mL,6.3 µg/mL,2.01 µg/mL,1.17 µg/mL,16.6 µg/mL,0.91 µg/mL,0.52 µg/mL,0.42 µg/mL,> 50 µg/mL,0.11 µg/mL,> 50 µg/mL,0.41 µg/mL,> 50 µg/mL,0.57 µg/mL,0.12 µg/mL,2.17 µg/mL,0.34 µg/mL,1.73 µg/mL,2.45 µg/mL,Neutralization IC50 [2]: 0.18 µg/mL and 0.2 µg/mL; Neutralization IC50 [3]: 3 µg/mL and 2.9 µg/mL; Neutralization IC50 [4]: 0.13 µg/mL

# Several values for one entry are separate records, joined by “and”; a condition that tells them apart may be missing. Equal entries are not always repeated. Where two headings read alike, the source gives them in different places.
